Experimental data: ChEMBL document CHEMBL4495565, “Cytopathic SARS-Cov2 screening on VERO-E6 cells in a large repurposing effort” (2020)
Several values for one entry are separate records, joined by “and”; a condition that tells them apart may be missing. Identical values can stand only once.

Test system: SARS-CoV-2
Settings: Chlorocebus sabaeus; Vero C1008; 10 uM

COLISTIN SULFATE was tested, and the inhibition was 0.01% (2×) and 0.08% (2×).
